# How the values were obtained:
# DENV-4 strain H241 = assay: Tetravalent RT-qPCR assay, serotype 4; type: cell-based, Dengue virus; conditions: RT-qPCR serotype 4, Protocol A
# Procedure: (§1) The antiviral activity of the compounds of the invention was tested against DENV-1 strain TC974#666 (NCPV), DENV-2 strain 16681, DENV-3 strain H87 (NCPV) and DENV-4 strain H241 (NCPV) in a RT-qPCR assay. Therefore, Vero cells were infected with either DENV-1, or -2, or -3, or -4 in the presence or absence of test compounds. At day 3 post-infection, the cells were lysed and cell lysates were used to prepare cDNA of both a viral target (the 3′UTR of DENV; Table 2) and a cellular reference gene (β-actin, Table 2). Subsequently, a duplex real time PCR was performed on a Lightcycler480 instrument. The generated Cp value is inversely proportional to the amount of RNA expression of these targets. Inhibition of DENV replication by a test compound results in a shift of Cp's for the 3′UTR gene. On the other hand, if a test compound is toxic to the cells, a similar effect on β-actin expression will be observed. The comparative ΔΔCp method is used to calculate EC50, which is based on the relative gene expression of the target gene (3′UTR) normalized with the cellular housekeeping gene (β-actin). In addition, CC50 values are determined based on the Cp values acquired for the housekeeping gene β-actin.
# (§2) The culture medium consisted of minimal essential medium supplemented with 2% of heat-inactivated fetal calf serum, 0.04% gentamycin (50 mg/mL) and 2 mM of L-glutamine. Vero cells, obtained from ECACC, were suspended in culture medium and 75 μL/well was added in 96-well plates (10000 cells/well), which already contain the antiviral compounds. […] In addition, each plate contains wells which are assigned as virus controls (containing cells and virus in the absence of compound) and cell controls (containing cells in the absence of virus and compound). Once the cells were added in the plates, the plates were incubated in a fully humidified incubator (37° C., 5% CO2) until the next day. Dengue viruses serotype-1, -2, -3 and -4 were diluted in order to obtain a Cp of ˜22-24 in the assay. Therefore, 25 μL of virus suspension was added to all the wells containing test compound and to the wells assigned as virus control. In parallel, 25 μL of culture medium was added to the cell controls. Next, the plates were incubated for 3 days in a fully humidified incubator (37° C., 5% CO2). After 3 days, the supernatant was removed from the wells and the cells were washed twice with ice-cold PBS (˜100 μL). The cell pellets within the 96-well plates were stored at −80° C. for at least 1 day. Next, RNA was extracted using the Cells-to-CT^Tm lysis kit, according to the manufacturer's guideline (Life Technologies). The cell lysates can be stored at −80° C. or immediately used in the reverse transcription step.
# (§3) In preparation of the reverse transcription step, mix A (table 3A) was prepared and 7.57 μL/well was dispensed in a 96-well plate. After addition of 5 μL of the cell lysates, a five minute denaturation step at 75° C. was performed (table 3B). Afterwards, 7.43 μL of mix B was added (table 3C) and the reverse transcription step was initiated (table 3D) to generate cDNA.
# (§4) Finally, a RT-qPCR mix was prepared, mix C (table 4A), and 22.02 μL/well was dispensed in 96-well LightCycler qPCR plates to which 3 μL of cDNA was added and the qPCR was performed according to the conditions in table 4B on a LightCycler 480.
# (§5) Using the LightCycler software and an in-house LIMS system, dose response curves for each compound were calculated and the half maximal effective concentration (EC50) and the half maximal cytotoxic concentration (CC50) were determined (Tables 5-8).
# DENV-2 16681 strain = assay: DENV-2 antiviral assay (eGFP fluorescence); type: cell-based, Dengue virus; conditions: SI=CC50/EC50, DENV-2 antiviral assay
# Procedure: The antiviral activity of all the compounds of the invention was tested against the DENV-2 16681 strain which was labeled with enhanced green fluorescent protein (eGPF). The culture medium consists of minimal essential medium supplemented with 2% of heat-inactivated fetal calf serum, 0.04% gentamycin (50 mg/mL) and 2 mM of L-glutamine. Vero cells, obtained from ECACC, were suspended in culture medium and 25 μL was added to 384-well plates (2500 cells/well), which already contain the antiviral compounds. Typically, these plates contain a 5-fold serial dilution of 9 dilution steps of the test compound at 200 times the final concentration in 100% DMSO (200 nL). […] Finally, each plate contains wells which are assigned as virus controls (containing cells and virus in the absence of compound), cell controls (containing cells in the absence of virus and compound) and medium controls (containing medium in the absence of cells, virus and compounds). To the wells assigned as medium control, 25 μL of culture medium was added instead of Vero cells. Once the cells were added to the plates, the plates were incubated for 30 minutes at room temperature to allow the cells to distribute evenly within the wells. Next, the plates were incubated in a fully humidified incubator (37° C., 5% CO2) until the next day. Then, DENV-2 strain 16681, labeled with eGFP, was added at a multiplicity of infection (MOI) of 0.5. Therefore, 15 μL of virus suspension was added to all the wells containing test compound and to the wells assigned as virus control. In parallel, 15 μL of culture medium was added to the medium and cell controls. Next, the plates were incubated for 3 days in a fully humidified incubator (37° C., 5% CO2). At the day of the read out, the eGFP fluorescence was measured using an automated fluorescence microscope at 488 nm (blue laser). Using an in-house LIMS system, inhibition dose response curves for each compound were calculated and the half maximal effective concentration (EC50) was determined. Therefore, the percent inhibition (I) for every test concentration is calculated using the following formula: I=100*(ST-SCC)/(SVC-SCC); ST, SCC and SVC are the amount of eGFP signal in the test compound, cell control and virus control wells, respectively. The EC50, represents the concentration of a compound at which the virus replication is inhibited with 50%, as measured by a 50% reduction of the eGFP fluorescent intensity compared to the virus control. The EC50 is calculated using linear interpolation (Table 1).
# DENV-1 strain TC974#666 = assay: Tetravalent RT-qPCR assay, serotype 1; type: cell-based, Dengue virus; conditions: RT-qPCR serotype 1, Protocol A
# Procedure: as §1, §2, §3, §4, §5
# DENV-2 strain 16681 = assay: Tetravalent RT-qPCR assay, serotype 2; type: cell-based, Dengue virus; conditions: RT-qPCR serotype 2, Protocol A
# Procedure: as §1, §2, §3, §4, §5
# DENV-3 strain H87 = assay: Tetravalent RT-qPCR assay, serotype 3; type: cell-based, Dengue virus; conditions: RT-qPCR serotype 3, Protocol A
# Procedure: as §1, §2, §3, §4, §5
# DENV-2 = conditions: analogous DENV-2 antiviral assay, reported activity; cited from earlier work
Compound,SI (DENV-4 strain H241),SI (DENV-2 16681 strain),SI (DENV-1 strain TC974#666),SI (DENV-2 strain 16681),SI (DENV-3 strain H87),SI (DENV-2)
"COc1cc(NC(C(=O)N2CCc3ccc(C(F)(F)F)cc32)c2ccc(F)cc2)cc(OCCCC(=O)O)c1 (single isomer, unassigned) [Compound 1B]",173,26500,34200,38000,>909,–
"COc1cc(NC(C(=O)N2CCc3ccc(OC(F)(F)F)cc32)c2ccc(F)cc2)cc(OCCCC(=O)O)c1 (single isomer, unassigned) [Compound 2B]",587,214720,>19400,76100,>1200,–
"COc1cc(NC(C(=O)N2CCc3ccc(C(F)(F)F)cc32)c2ccc(Cl)cc2)cc(OCCCC(=O)O)c1 (single isomer, unassigned) [Compound 3B]",85,111100,>30300,81700,>5170,–
"COc1cc(NC(C(=O)N2CCc3ccc(OC(F)(F)F)cc32)c2ccc(Cl)cc2)cc(OCCCC(=O)O)c1 (single isomer, unassigned) [Compound 4B]",682,92400,>85800,>65500,>5610,–
"COc1cc(NC(C(=O)N2CCc3cc(OC)c(C(F)(F)F)cc32)c2ccc(Cl)cc2)cc(OCCCC(=O)O)c1 (single isomer, unassigned) [Compound 5B]",530,87500,>6700,>16000,>1050,–
"COc1cc(NC(C(=O)N2CCc3ccc(C(F)(F)F)cc32)c2ccc(Cl)cc2OC)cc(OCCCC(=O)O)c1 (single isomer, unassigned) [Compound 6B]",>232,>209126,>8420,>23800,>2170,–
"COc1cc(NC(C(=O)N2CCc3cc(OC)c(C(F)(F)F)cc32)c2ccc(Cl)cc2OC)cc(OCCCC(=O)O)c1 (single isomer, unassigned) [Compound 7B]",531,101083,>6020,>34500,>1080,–
"COc1cc(NC(C(=O)N2CCc3ccc(OC(F)(F)F)cc32)c2ccc(Cl)cc2OC)cc(OCCCC(=O)O)c1 (single isomer, unassigned) [Compound 8B]",334,>62700,>30700,>43700,>2740,–
"COc1cc(NC(C(=O)N2CCc3ccc(C(F)(F)F)cc32)c2ccc(Cl)cc2F)cc(OCCCC(=O)O)c1 (single isomer, unassigned) [Compound 9B]",570,28400,>24000,>18200,>1360,–
"COc1cc(NC(C(=O)N2CCc3ccc(OC(F)(F)F)cc32)c2ccc(Cl)cc2F)cc(OCCCC(=O)O)c1 (single isomer, unassigned) [Compound 10A]",2640,79200,>33300,>24400,>1290,–
"COc1cc(NC(C(=O)N2CCc3cc(OC)c(C(F)(F)F)cc32)c2ccc(Cl)cc2F)cc(OCCCC(=O)O)c1 (single isomer, unassigned) [Compound 11B]",697,124345,>6970,>18300,>604,–
"COc1cc(NC(C(=O)N2CCc3cc(OC)c(OC(F)(F)F)cc32)c2ccc(Cl)cc2)cc(OCCCC(=O)O)c1 (single isomer, unassigned) [Compound 12B]",348,34900,>6820,>12900,>1240,–
COc1cccc(NC(C(=O)N2CCc3ccccc32)c2ccccc2)c1 (centres unmarked) [(56) of WO-2013/045516],–,–,–,–,–,>312
CNC(=O)c1cccc(NC(C(=O)c2c[nH]c3ccccc23)c2ccccc2)c1 (centres unmarked) [(170) of WO-2013/045516],–,–,–,–,–,58
